## Sequence variants of PSTVd stem 15 after infection

The measurements come from Wu et al. 2024 (doi:10.1371/journal.ppat.1012142).

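Three N. benthamiana plants were inoculated with the whole mutant pool. Progeny were sequenced from the inoculated region (day 5), the margin of the inoculated leaf (day 10) and systemic leaves (day 12).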

PSTVd intermediate strain, stem 15: wild type CUGGAGCGAUCGCUUCGG, pool pattern CUGGAGCGAUNGNNUNNG; upper and lower strand joined, each 5' to 3', the first 9 letters being the upper strand.

Values are reads per thousand in the sample; higher means more abundant, 0 means not found. Each site shows the three plants. "Pool" is the share in the plasmid pool used as inoculum, on the same scale. The inoculated region was read from the minus strand, the other sites from the plus strand. IR is the inoculated region, LM the leaf margin, Sys the systemic leaves. Sequences that differ at fixed positions probably stem from PCR or sequencing errors, and defective variants can be carried along by functional ones. With 36,693-63,082 reads a sample, very low values are single reads. For reference, wild type rose from 10.2 per thousand in the pool to 285, 367, 312 (inoculated region), 785, 865, 782 (leaf margin) and 854, 898, 915 (systemic leaves).

| sequence | pool | IR | LM | Sys |
|---|---|---|---|---|
| CUGGAGCGAUAGCAUAGG | 0.760 | 0.254 / 0.356 / 0.335 | 0 / 0.0273 / 0.0317 | 0 / 0 / 0 |
| CUGGAGCGAUAGCAUAUG | 0.776 | 0.176 / 0.168 / 0.409 | 0.0620 / 0 / 0.0159 | 0 / 0 / 0 |
| CUGGAGCGAUAGCAUCAG | 0.792 | 0.254 / 0.188 / 0.316 | 0.0827 / 0.0273 / 0 | 0 / 0 / 0 |
| CUGGAGCGAUAGCAUCCG | 0.840 | 0.274 / 0.377 / 0.242 | 0.103 / 0.0273 / 0.0317 | 0 / 0 / 0 |
| CUGGAGCGAUAGCAUCGG | 0.679 | 0.313 / 0.230 / 0.354 | 0.0620 / 0.0545 / 0 | 0 / 0 / 0 |
| CUGGAGCGAUAGCAUCUG | 0.824 | 0.254 / 0.209 / 0.335 | 0 / 0.0273 / 0 | 0 / 0 / 0 |
| CUGGAGCGAUAGCAUGAG | 0.727 | 0.274 / 0.209 / 0.242 | 0.0827 / 0.0545 / 0 | 0 / 0 / 0 |
| CUGGAGCGAUAGCAUGCG | 0.954 | 0.333 / 0.272 / 0.186 | 0.124 / 0 / 0.0317 | 0 / 0 / 0 |
| CUGGAGCGAUAGCAUGGG | 0.986 | 0.333 / 0.230 / 0.242 | 0.0414 / 0.0545 / 0.0159 | 0 / 0 / 0 |
| CUGGAGCGAUAGCAUGUG | 0.873 | 0.235 / 0.251 / 0.372 | 0.0207 / 0.0273 / 0.0159 | 0 / 0 / 0 |
| CUGGAGCGAUAGCAUUAG | 0.970 | 0.274 / 0.314 / 0.372 | 0.0620 / 0.0273 / 0.0159 | 0 / 0 / 0 |
| CUGGAGCGAUAGCAUUCG | 0.937 | 0.254 / 0.335 / 0.242 | 0.0414 / 0.0545 / 0.0159 | 0 / 0 / 0 |
| CUGGAGCGAUAGCAUUGG | 0.808 | 0.333 / 0.209 / 0.335 | 0.0414 / 0 / 0.0159 | 0 / 0 / 0 |
| CUGGAGCGAUAGCAUUUG | 0.776 | 0.254 / 0.293 / 0.298 | 0.103 / 0.0273 / 0.0159 | 0 / 0 / 0 |
| CUGGAGCGAUAGCCUAAG | 0.905 | 0.235 / 0.251 / 0.242 | 0.0620 / 0.0273 / 0.0159 | 0 / 0 / 0 |
| CUGGAGCGAUAGCCUACG | 0.986 | 0.274 / 0.230 / 0.261 | 0.0207 / 0.0818 / 0 | 0 / 0 / 0 |
| CUGGAGCGAUAGCCUAGG | 0.986 | 0.430 / 0.168 / 0.223 | 0.124 / 0.0273 / 0 | 0 / 0 / 0 |
| CUGGAGCGAUAGCCUAUG | 0.857 | 0.274 / 0.230 / 0.168 | 0.0207 / 0.0273 / 0.0476 | 0 / 0 / 0 |
| CUGGAGCGAUAGCCUCAG | 1.05 | 0.274 / 1.01 / 0.316 | 0.0620 / 0.0273 / 0.0159 | 0 / 0 / 0 |
| CUGGAGCGAUAGCCUCCG | 0.727 | 0.333 / 0.293 / 0.279 | 0 / 0.0273 / 0.0159 | 0 / 0 / 0 |
| CUGGAGCGAUAGCCUCGG | 1.03 | 0.352 / 0.461 / 0.409 | 0.0827 / 0.0545 / 0.0159 | 0 / 0 / 0 |
| CUGGAGCGAUAGCCUCUG | 0.873 | 0.274 / 0.188 / 0.372 | 0.0414 / 0.0273 / 0.0159 | 0 / 0 / 0 |
| CUGGAGCGAUAGCCUGAG | 0.857 | 0.254 / 0.356 / 0.409 | 0 / 0.0273 / 0.0476 | 0 / 0 / 0 |
| CUGGAGCGAUAGCCUGCG | 0.905 | 0.215 / 0.398 / 0.316 | 0.0414 / 0 / 0.0159 | 0 / 0 / 0 |
| CUGGAGCGAUAGCCUGGG | 0.937 | 0.411 / 0.398 / 0.354 | 0.0620 / 0 / 0.0159 | 0 / 0 / 0 |
| CUGGAGCGAUAGCCUGUG | 0.889 | 0.294 / 0.188 / 0.428 | 0.0207 / 0.0273 / 0.0634 | 0 / 0 / 0 |
| CUGGAGCGAUAGCCUUAG | 0.905 | 2.02 / 1.03 / 1.30 | 0.538 / 0.136 / 1.11 | 0 / 0 / 0 |
| CUGGAGCGAUAGCCUUCG | 1.23 | 0.196 / 1.05 / 0.372 | 0.145 / 0.0273 / 0.0317 | 0 / 0 / 0 |
| CUGGAGCGAUAGCCUUGG | 0.743 | 0.352 / 0.356 / 0.279 | 0.0827 / 0.0818 / 0 | 0 / 0 / 0 |
| CUGGAGCGAUAGCCUUUG | 0.776 | 0.391 / 0.398 / 0.335 | 0.165 / 0.0545 / 0 | 0 / 0 / 0 |
| CUGGAGCGAUAGCGUAAG | 1.03 | 0.176 / 0.314 / 0.316 | 0 / 0.0273 / 0.0159 | 0 / 0 / 0 |
| CUGGAGCGAUAGCGUACG | 0.889 | 0.176 / 0.293 / 0.391 | 0.0827 / 0.0273 / 0.0317 | 0 / 0 / 0 |
| CUGGAGCGAUAGCGUAGG | 1.16 | 0.235 / 0.188 / 0.465 | 0.103 / 0.0545 / 0.0317 | 0 / 0 / 0 |
| CUGGAGCGAUAGCGUAUG | 0.824 | 0.274 / 0.356 / 0.354 | 0.0414 / 0.0273 / 0 | 0 / 0 / 0 |
| CUGGAGCGAUAGCGUCAG | 0.857 | 0.313 / 0.209 / 0.372 | 0.103 / 0.0818 / 0.0159 | 0 / 0 / 0 |
| CUGGAGCGAUAGCGUCCG | 0.711 | 0.294 / 0.209 / 0.112 | 0 / 0 / 0.0159 | 0 / 0 / 0 |
| CUGGAGCGAUAGCGUCGG | 0.727 | 0.215 / 0.168 / 0.354 | 0.0620 / 0.0273 / 0.0317 | 0 / 0 / 0 |
| CUGGAGCGAUAGCGUCUG | 0.776 | 0.352 / 0.251 / 0.242 | 0 / 0.0545 / 0.0476 | 0 / 0 / 0 |
| CUGGAGCGAUAGCGUGAG | 0.792 | 0.215 / 0.314 / 0.335 | 0.0620 / 0.0545 / 0 | 0 / 0 / 0 |
| CUGGAGCGAUAGCGUGCG | 0.889 | 0.274 / 0.230 / 0.409 | 0.103 / 0.0273 / 0.0317 | 0 / 0 / 0 |
| CUGGAGCGAUAGCGUGGG | 0.840 | 0.313 / 0.251 / 0.279 | 0.0207 / 0 / 0.0159 | 0 / 0 / 0 |
| CUGGAGCGAUAGCGUGUG | 0.921 | 0.254 / 0.147 / 0.447 | 0 / 0.0545 / 0.0317 | 0 / 0 / 0 |
| CUGGAGCGAUAGCGUUAG | 0.614 | 0.411 / 0.293 / 0.335 | 0.0414 / 0.0273 / 0.0159 | 0 / 0 / 0 |
| CUGGAGCGAUAGCGUUCG | 0.954 | 0.235 / 0.188 / 0.372 | 0.103 / 0.0273 / 0.0317 | 0 / 0 / 0 |
| CUGGAGCGAUAGCGUUGG | 0.905 | 0.235 / 0.126 / 0.335 | 0.0827 / 0 / 0.0634 | 0 / 0 / 0 |
| CUGGAGCGAUAGCGUUUG | 0.743 | 0.391 / 0.272 / 0.465 | 0.0620 / 0.0545 / 0.0159 | 0 / 0 / 0 |
| CUGGAGCGAUAGCUUAAG | 0.986 | 0.176 / 0.230 / 0.372 | 0.0207 / 0.0545 / 0.0159 | 0 / 0 / 0 |
| CUGGAGCGAUAGCUUACG | 1.07 | 0.235 / 0.482 / 0.354 | 0.0827 / 0.0545 / 0.0159 | 0 / 0 / 0 |
| CUGGAGCGAUAGCUUAGG | 0.679 | 0.313 / 0.293 / 0.409 | 0.165 / 0.0273 / 0.0476 | 0 / 0 / 0 |
| CUGGAGCGAUAGCUUAUG | 2.65 | 1.12 / 0.859 / 1.02 | 0.186 / 0 / 0.0317 | 0 / 0 / 0.598 |
| CUGGAGCGAUAGCUUCAG | 0.857 | 0.372 / 0.398 / 0.335 | 0.0414 / 0 / 0.0476 | 0 / 0 / 0 |
| CUGGAGCGAUAGCUUCCG | 1.05 | 0.176 / 0.335 / 0.335 | 0.0207 / 0.0273 / 0.0317 | 0 / 0 / 0 |
| CUGGAGCGAUAGCUUCGG | 0.889 | 0.704 / 0.377 / 0.447 | 0.414 / 0.218 / 0.285 | 1.74 / 0.133 / 0.239 |
| CUGGAGCGAUAGCUUCUG | 1.97 | 0.841 / 1.32 / 1.04 | 0.0620 / 0.0545 / 0.0476 | 0.0198 / 0.0222 / 0.0199 |
| CUGGAGCGAUAGCUUGAG | 0.921 | 0.372 / 0.272 / 0.279 | 0.0414 / 0.0818 / 0.0317 | 0 / 0 / 0 |